Results: article PMC5333631 (Scientific Reports, 2017)

Molecular target: BoNT/A2-HC (6xHis-TrxA removed with thrombin) (UniProt Q45894 871-1296)

B1: luminal domain (LD) of human SV2C (domain or fragment, UniProt Q496J9 456-574, looked up)
chain: DVIKPLQSDEYALLTRNVERDKYANFTINFTMENQIHTGMEYDNGRFIGVKFKSVTFKDSVFKSCTFEDVTSVNTYFKNCTFIDTVFDNTDFEPYKFIDSEFKNCSFFHNKTGCQITFD
notes: also called SV2C-LD; untagged SV2C-LD; not shown: 6xHis, N-terminal, cleaved
B1: binds.
